The source of these data is the supplement of paper PMC9931576.

Human monoclonal antibodies against the spike receptor-binding domain (heavy:light variable regions). IC50 against pseudoviruses bearing the spike of naturally observed variants; lower = stronger; >10 µg/ml means not reached at the top dose. No active / inactive call. The stated detection limit is 0.0005 µg/ml; values near or below 0.001 µg/ml lie at the floor of the assay.

To fix the notation:
B1: BD58-0498 (protein)
chain 1: EVQLVQSGAEVKKPGESLKISCKDSGNTFTSDWIGWVRQMPGKGLEWMGIIYPDDSDTRYSPSFQGQVTMSVDKSISTAYLQWSSLKASDTAIYYCARHRAPHRIFSGVLDVWGQGTTVTVSS
chain 2: DIQMTQSPSSLSASVRDRVTITCQASQDISNSLNWYQQKPGKAPRLLIYDASILETGVPSRFSGSGSGTDFTLTISSLQLEDVATYYCQHYVSLPFTFGPGTKVDIK
B2: BD58-0482 (protein)
chain 1: QVTLRESGPALVKPTQTLTLTCTFSGFSLSTSGMCVSWIRQPPGKALEWLGLIHWDDDKYYNTSLKTRLTISKDTSKNQVVLIMTNMDPVDTATYYCARIPAGSSSWFFDYWGQGTLVTVSS
chain 2: SYELTQPPSVSVSPGQTARITCSGDALPNQYAYWYQQKPGQAPVLVIFKDSERPSGIPERFSGSSSGTTVTLTISGVQAEDEADYYCQSTDNSATVLFGGGTKLTVL
B3: BD58-0497 (protein)
chain 1: QVQLVQSGAEVKKPGASVKVSCKASGYTFTSYDINWVRQATGQGLEWMGWMNPNSGDTGHAQKFQGRVTMTRNTSISTAYMELSSLRSEDTAVYYCARGLGVDYYDDSRGYADYWGQGTLVTVSS
chain 2: QSALTQPRSVSGSPGQSVTISCTGTSSDAGAYNYVSWYQQHPGKAPKLIIYDISKRPSGVPDRFSGSKSGNTASLTISGLQAEDEADYYCCSYGGNYVFGSGTKVTVL
B4: BD58-0475 (protein)
chain 1: QVQLQESGPGLVKPSQTLSLTCTVSGGSISSGVYYWSWIRQHPGKGLEWIGYIYYSGSAYYNPSLKSRITISVDTSKNQFSLKLSSVTAADTAVYYCARDDDSNGRVDYWGQGTLVTVSS
chain 2: QSAPTQPASVSGSPGQSITISCTGTNSDIGGYNFVSWYQQHPGKAPKLMIYDVSNRPSGVSNRFSGSKSGNTASLTISGLQAEDEADYYCSSYTSSSTRVFGGGTKLTVL
B5: BD56-281 (protein)
chain 1: QVQLQESGPGLVKPSETLSLTCIVSGGSISSYYWSWIRQPPGKGLEWIGYIYYSGSTNYNPSLKSRVTISVDTPKNQFSLKLSSVTAADTAVYYCATTDLYASSMYFDNWGQGTLVTVSS
chain 2: SYELTQPPSVSVSPGQTARITCSGDALPIQYAYWYQQKPGQAPVLVIYKDSERPSGVPERFSGSSSGTTVTLTISGVQAEDEADYYCQSADRSDTPVVFGGGTKLTVL

In the first experiment the target is SARS-CoV-2 Omicron BA.1 spike pseudovirus. The experiment is described as follows: pseudovirus neutralization IC50; higher = weaker neutralization. The protocol: (§1)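 Single-round VSV luciferase pseudovirus mixed with antibody dilutions for 1 h and put on Huh-7 cells for about a day; IC50 from the dose curve.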
Take B1: the “pseudovirus neutralization IC50” value was above 10 µg/mL.
Turning to B2, the “pseudovirus neutralization IC50” value is 0.00246 µg/mL.
Still for that read-out and setting: for B3 the value was 0.118 µg/mL; for B4, above 10 µg/mL.
Still for that read-out and setting: for B5 the value was 0.000836 µg/mL.

Another experiment has as its target SARS-CoV-2 Omicron BA.2 spike pseudovirus. The experiment is described as above. The protocol: as §1
Take B1: the “pseudovirus neutralization IC50” value is 0.00218 µg/mL.
Same read-out and setting: next, B2: 0.129 µg/mL; B3: 0.177 µg/mL; B4: 0.0475 µg/mL.
On the same count and under the same terms, for B5 the value was 0.00258 µg/mL.

In another experiment the target is SARS-CoV-2 Omicron BA.2.75 spike pseudovirus. The description is as above. The protocol:
as §1
With B1, the “pseudovirus neutralization IC50” value was above 10 µg/mL.
The same measure, in the same setting: for B2 the value was 0.0147 µg/mL; for B3, 0.328 µg/mL; for B4, above 10 µg/mL.
The same measure, in the same setting: next, B5: 0.00709 µg/mL.

In the next experiment the target is SARS-CoV-2 Omicron BA.2.75.2 spike pseudovirus. Described as above. The procedure:
as §1
Take B1: the “pseudovirus neutralization IC50” value was above 10 µg/mL.
The same measure, in the same setting: for B2 the value was 0.0442 µg/mL.
Consider B3, for which the “pseudovirus neutralization IC50” value was found to be 0.219 µg/mL.
For the molecule B4, the “pseudovirus neutralization IC50” value is above 10 µg/mL.
Still for that read-out and setting: next, B5: 0.00254 µg/mL.

In another experiment the target is SARS-CoV-2 Omicron BA.5 spike pseudovirus. Described as above. The procedure:
as §1
As for B1, the “pseudovirus neutralization IC50” value was above 10 µg/mL.
In the case of B2, the “pseudovirus neutralization IC50” value is 0.0392 µg/mL.
Same read-out and setting: for B3 the value was 0.193 µg/mL.
The same measure, in the same setting: next, B4: 0.0127 µg/mL.
Same read-out and setting: for B5 the value was 0.00357 µg/mL.

Another experiment concerns the target SARS-CoV-2 Omicron BM.1.1.1 spike pseudovirus. Described as above. The protocol:
as §1
B1: the “pseudovirus neutralization IC50” value is above 10 µg/mL.
The same measure, in the same setting: for B2 the value was 0.0135 µg/mL.
Same read-out and setting: for B3 the value was 0.405 µg/mL; for B4, above 10 µg/mL; for B5, 0.00283 µg/mL.

Another experiment has as its target SARS-CoV-2 Omicron BQ.1.1 spike pseudovirus. The description is as above. The procedure:
as §1
In the case of B1, the “pseudovirus neutralization IC50” value is above 10 µg/mL.
On the same count and under the same terms, for B2 the value was 0.0963 µg/mL.
The same measure, in the same setting: next, B3: 0.326 µg/mL; B4: above 10 µg/mL; B5: 0.0121 µg/mL.

The target in the next experiment is SARS-CoV-2 Omicron BR.2 spike pseudovirus. Described as above. The procedure: as §1
For B1, the “pseudovirus neutralization IC50” value is above 10 µg/mL.
Regarding B2, the “pseudovirus neutralization IC50” value came out at 0.0187 µg/mL.
Same read-out and setting: for B3 the value was 0.208 µg/mL; for B4, above 10 µg/mL; for B5, 0.00199 µg/mL.

In another experiment the target is SARS-CoV-2 Omicron CA.1 spike pseudovirus. Described as above. The procedure:
as §1
B1: the “pseudovirus neutralization IC50” value was above 10 µg/mL.
Still for that read-out and setting: next, B2: 0.0257 µg/mL; B3: 0.216 µg/mL.
On the same count and under the same terms, for B4 the value was above 10 µg/mL; for B5, 0.0023 µg/mL.

The next experiment has as its target SARS-CoV-2 Omicron XBB spike pseudovirus. The description is as above. The procedure: as §1
For the molecule B1, the “pseudovirus neutralization IC50” value was above 10 µg/mL.
Same read-out and setting: for B2 the value was above 10 µg/mL; for B3, 0.16 µg/mL; for B4, above 10 µg/mL.
B5: the “pseudovirus neutralization IC50” value was above 10 µg/mL.

The next experiment addresses SARS-CoV-2 early D614G spike pseudovirus. Described as above. The procedure:
as §1
B1: the “pseudovirus neutralization IC50” value was above 10 µg/mL.
Still for that read-out and setting: next, B2: above 10 µg/mL.
Still for that read-out and setting: for B3 the value was above 10 µg/mL; for B4, above 10 µg/mL; for B5, above 10 µg/mL.
